Kd data for 1 substance are collected here from patent US20120121633A1, “HIV CD4 BINDING SITE BASED COVALENT IMMUNOGEN COMPOSITIONS” (priority 2010, published 2012).

The target of this assay is KLH-E-416-433 (HIV-1 gp120, consensus subtype B epitope sequence).

“soluble CD4 (from UniProt P01730 26-396) (receptor)” yielded a Kd of 182 nM.
